{"source": "patent US12364719B2", "about": "“Bacillus subtilis strains improving animal performance parameters” (priority 2017, dated 2025)", "test_system": "Clostridium perfringens strain 56", "assay_type": "in vivo, Male Ross 308 broilers", "details": "Day 25; 0-6 score"}
{"smiles": "CC1(C)S[C@@H]2[C@H](NC(=O)[C@H](N)c3ccc(O)cc3)C(=O)N2[C@H]1C(=O)O", "note": "[Amoxicillin]", "values": [{"measurement": "Mean score (NE)", "result": 1.56}]}
